Data source: PubChem BioAssay AID504761 (Drosophila RNAi Screening Center, 2011)
The screen tested about 22,000 reagents; this is an unselected part of those with a known target gene and a result. In the full data, 116 (0.52%) are marked active. 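Calls depend on retest data that are not deposited; infection was ranked per plate without normalising between plates; the unit of the infection score is not given.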 Raw values vary from plate to plate and are shown uncorrected. Unmarked entries are inactive. A plus sign joins genes that one reagent is predicted to hit. Further read-outs or replicates are left out here. Reagent sequences are not shown. Not given: the amount of reagent, the time to read-out.

Assay: 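Fly genes whose silencing reduces dengue virus type 2 infection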 (primary screen)
Cells: D.Mel-2 cells from Drosophila
Knock-down reagent: long dsRNA against Drosophila genes
Conditions: infection with dengue virus type 2; dose and infection time not stated
Measured: 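Per well on two replicate plates, imaging gave the percent of cells positive for viral envelope protein, ranked by infection, and a nuclear count of cells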
Scale: infection score: higher = more virus-infected cells; cell count: higher = more cells in the well
Hit rule: 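Very low infection ranking in both replicate wells (chance probability at most 0.065), then a retest showing infection dropped 1.5-fold or more at p below 0.05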
Meaning of the calls: active = confirmed: knock-down lowers infection; inactive = not picked or not confirmed

| gene | DRSC id | infection score, replicate 1 | infection score, replicate 2 | cell count, replicate 1 |
| --- | --- | --- | --- | --- |
| aqz | DRSC16570 | 2.13 | 4.07 | 6286 |
| aqz | DRSC25042 | 7.1 | 3.6 | 6872 |
| Xpac | DRSC18730 | 6.46 | 0.62 | 5344 |
| Xpac | DRSC25963 | 4.88 | 5.21 | 6409 |
| Dnz1 | DRSC03317 | 21.5 | 6.62 | 5245 |
| Dnz1 | DRSC24926 | 1.32 | 4.25 | 6227 |
| Rif1 | DRSC05593 | 0.8 | 2.26 | 6342 |
| CG31528 | DRSC12003 | 1.35 | 1.6 | 6500 |
| Pal2 | DRSC04507 | 6.74 | 7.32 | 6630 |
| Cpr30B | DRSC02728 | 10.3 | – | 4520 |
| Cpr30B | DRSC25204 | 6.26 | 6.11 | 7177 |
| RpS10a | DRSC14161 | 7.35 | 14.4 | 6732 |
| RpS10a | DRSC26061 | 5.44 | 2.35 | 5427 |
| CG15745 (retired record) | DRSC19711 | – | 7.68 | 360 |
| Ost48 | DRSC18693 | 1.77 | 1.7 | 6391 |
| CG5103 | DRSC10481 | 8.71 | 4.71 | 6644 |
| sowi | DRSC12558 | 3.84 | 6.11 | 834 |
| sowi | DRSC24116 | 2.51 | 3.12 | 6330 |
| Atf6 | DRSC04743 | 1.98 | 1.41 | 6661 |
| Atf6 | DRSC04889 | 14.4 | – | 6269 |
| Atf6 | DRSC28936 | 19.8 | 5.94 | 4087 |
| Wnt5 | DRSC20300 | 3.51 | 8.74 | 6208 |
| Wnt5 | DRSC28853 | 15.8 | – | 5060 |
| CG15912 | DRSC18105 | 17.6 | 0.95 | 4282 |
| CG15912 | DRSC28275 | 8.1 | 10.3 | 5592 |
| CG42583 | DRSC22937 | 3.29 | 13.8 | 6225 |
| CG42583 | DRSC26327 | 4.12 | 1.72 | 6402 |
| Mst36Fa | DRSC21564 | 1.88 | 8.23 | 5846 |
| Mst36Fa | DRSC26339 | 3.78 | 8.21 | 6596 |
| prod | DRSC07667 | 11.3 | 12.3 | 5122 |
| prod | DRSC25498 | 1.87 | 2.45 | 6564 |
| CG13681 (retired record) | DRSC08906 | 9.94 | 7.91 | 6136 |
| CG13681 (retired record) | DRSC08907 | 6.06 | 5.7 | 6488 |
| CG13681 (retired record) | DRSC10038 | 6.04 | 3.04 | 6123 |
| CG13681 (retired record) | DRSC10039 | 7.3 | 4.92 | 5959 |
| CG13681 (retired record) | DRSC10927 | 1.49 | 7.07 | 6101 |
| CG13681 (retired record) | DRSC10929 | 7.1 | 6.16 | 7083 |
| CG13681 (retired record) | DRSC27924 | 12.2 | 9.56 | 6571 |
| CG44836 | DRSC09915 | 1.23 | 2.04 | 6095 |
| CG44836 | DRSC26572 | 2.61 | 2.9 | 6137 |
| CG13055 | DRSC09936 | 0.53 | 0.94 | 6256 |
| CG13055 | DRSC25640 | 9.64 | 24.8 | 5434 |
| CG14424 | DRSC18472 | 2.06 | – | 2086 |
| CG14424 | DRSC29124 | – | 0.37 | 293 |
| eIF3g1 | DRSC18427 | 4.64 | 6.03 | 3168 |
| eIF3g1 | DRSC29282 | 20.4 | 9.27 | 1952 |
| AstC-R2 | DRSC23467 | 2.88 | 3.54 | 5896 |
| Cyp9f3 | DRSC16636 | 23.7 | 15 | 3277 |
| Cyp9f3 | DRSC25711 | 3.49 | 0.83 | 6650 |
| l(2)efl | DRSC04698 | 3.04 | 8.34 | 6754 |
| CG42304 + Snup | DRSC08276 | 8.28 | 28.6 | 6729 |
| CG42304 + Snup | DRSC08277 | 6.88 | 18.6 | 6265 |
| CG42304 + Snup | DRSC22781 | 0.92 | 2.12 | 6226 |
| CG42304 + Snup | DRSC23772 | 3.21 | 4.22 | 7072 |
| CG7916 | DRSC01901 | 13.3 | 9.65 | 4427 |
| RpS6 | DRSC18712 | 22.7 | 15.3 | 1508 |
| RpS6 | DRSC25010 | 5.18 | 8.39 | 2412 |
| PpD5 | DRSC04641 | 13.8 | 8.36 | 6632 |
| PpD5 | DRSC23312 | 0.87 | 14.6 | 6747 |
| Sox15 | DRSC07555 | 7.79 | 11 | 6957 |
| Sox15 | DRSC28528 | 17.3 | 14.4 | 6501 |
| Cyp12c1 | DRSC11125 | 7.28 | 7.78 | 6694 |
| Cyp12c1 | DRSC24262 | 3.29 | 2.14 | 5865 |
| TBC1D23 | DRSC00657 | 1.16 | 3.13 | 6359 |
| TBC1D23 | DRSC30084 | 2.34 | 9.59 | 6547 |
| CG12828 | DRSC06177 | 1.74 | 19.2 | 6425 |
| Naa35 | DRSC04447 | 12.7 | 16.2 | 6034 |
| Naa35 | DRSC26149 | 1.57 (active) | 0.93 | 6678 |
| Aduk | DRSC16451 | 2.66 | 13.7 | 5555 |
| Aduk | DRSC29838 | 2.62 | 4.15 | 6519 |
| IleRS-m | DRSC10506 | 1.23 | 4.05 | 6004 |
| Roc2 | DRSC07313 | 14.5 | 11.6 | 6058 |
| Roc2 | DRSC27174 | 11.3 | 37.3 | 6734 |
| SkpD | DRSC22208 | 2.17 | 1.53 | 6629 |
